From article PMC11253607, “A conserved inhibitory interdomain interaction regulates DNA-binding activities of hybrid two-component systems in Bacteroides” (mBio, 2024)
Substitutions are numbered along the chain they refer to. Where a protein sequence is shown, tags need not be part of it. The exact form of at least one protein or probe is not confirmed. For part of these data: At least one verdict was read from the data and is not stated in words by the source.

How the values were obtained:
Assay in all cases: EMSA
[1] = biological target: T1, BT4663-RRAD C1174A,H1175D (Bacteroides thetaiotaomicron VPI 5482) (UniProt Q89YR8); settings: phosphorylated with 50 mM PAM; 50 mM Tris pH 7.6, 200 mM NaCl, 2.5% glycerol, 2 mM MgCl2, 0.5 mM DTT, 0.1 ug/uL BSA, 10 ng/uL salmon sperm DNA, ~2.5 ng/uL DNA; 30 min, temperature not stated; recombinant protein; residues 1097-1353; protein details: C-terminal GSGAGGHHHHHHG; label: 5'-FAM on strand 1
T1 sequence (looked up): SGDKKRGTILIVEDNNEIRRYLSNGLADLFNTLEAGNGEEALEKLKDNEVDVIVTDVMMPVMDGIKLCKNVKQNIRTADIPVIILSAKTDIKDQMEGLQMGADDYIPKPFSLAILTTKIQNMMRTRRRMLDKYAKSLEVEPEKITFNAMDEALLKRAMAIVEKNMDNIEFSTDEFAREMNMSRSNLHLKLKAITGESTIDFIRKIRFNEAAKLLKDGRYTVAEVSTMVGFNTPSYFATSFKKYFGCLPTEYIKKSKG

[2] = biological target: T2, BT4663-RRAG C1174A,H1175G (Bacteroides thetaiotaomicron VPI 5482) (UniProt Q89YR8); settings: phosphorylated with 50 mM PAM; 50 mM Tris pH 7.6, 200 mM NaCl, 2.5% glycerol, 2 mM MgCl2, 0.5 mM DTT, 0.1 ug/uL BSA, 10 ng/uL salmon sperm DNA, ~2.5 ng/uL DNA; 30 min, temperature not stated; recombinant protein; residues 1097-1353; protein details: C-terminal GSGAGGHHHHHHG; label: 5'-FAM on strand 1
T2 sequence (looked up): T1 sequence (looked up) with D79G

[3] = biological target: T3, BT4124-RRAG C1262A,H1263G (Bacteroides thetaiotaomicron VPI 5482) (UniProt Q8A097); settings: 50 mM Tris pH 7.6, 200 mM NaCl, 2.5% glycerol, 2 mM MgCl2, 0.5 mM DTT, 0.1 ug/uL BSA, 10 ng/uL salmon sperm DNA, ~2.5 ng/uL DNA, 30 min, temperature not stated, recombinant protein, residues 1186-1450, protein details: C-terminal GSGAGGHHHHHHG, label: 5'-FAM on strand 1
T3 sequence (looked up): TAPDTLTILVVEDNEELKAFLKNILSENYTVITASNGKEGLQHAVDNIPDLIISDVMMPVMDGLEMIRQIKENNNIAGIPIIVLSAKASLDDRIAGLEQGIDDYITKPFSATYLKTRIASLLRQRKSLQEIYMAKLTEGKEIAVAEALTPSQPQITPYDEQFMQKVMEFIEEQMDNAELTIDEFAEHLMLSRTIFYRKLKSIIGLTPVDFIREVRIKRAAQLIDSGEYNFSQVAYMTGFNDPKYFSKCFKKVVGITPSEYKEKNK

[4] = biological target: T4, BT4124-RRAD C1262A,H1263D (Bacteroides thetaiotaomicron VPI 5482) (UniProt Q8A097); settings: 50 mM Tris pH 7.6, 200 mM NaCl, 2.5% glycerol, 2 mM MgCl2, 0.5 mM DTT, 0.1 ug/uL BSA, 10 ng/uL salmon sperm DNA, ~2.5 ng/uL DNA, 30 min, temperature not stated, recombinant protein, residues 1186-1450, protein details: C-terminal GSGAGGHHHHHHG, label: 5'-FAM on strand 1
T4 sequence (looked up): T3 sequence (looked up) with G78D

Measured: binding result

GATGGTAGTGTGGGGTCTCATGCCTAGGATACAGGAGATAAACAGCTTTTTTAAACAAAAACAACATATGTCTCAACAAATTTGATATCAAAAAAATCATTTTTGAACAAAGTATGAACAACCTAAATTAAAGAATCTAATTAATGAGGTTACATTTGCAACAGTAAAATAACACTTTTAATAATTATAAAACCTAATAAAGTATGAAGAACGAGACCGAAATTCAATAAGGAGG (double strand) [bt4662 promoter fragment]
binds: [1] | [2]

GATGGTAGTGTGGGGTCTCATGCCTCGTCTTTATTCATTTTATGCCGGAAAAACAAAAAATACTATCGTAAAAACAAATATTACACATCCCACAAGCCCCAAAAACATAATTTTGCACCAGTGAGAACTCTAAGAGTGGACACACTCGAATATTAATAATCTAATATAAAAGAACAAAAGATGCCTAAAGGAATGAAGAACGAGACCGAAATTCAATAAGGAGG (double strand) [bt4114 promoter fragment]
binds: [3]; phosphorylated with 50 mM PAM | [3]; unphosphorylated | [4]; phosphorylated with 50 mM PAM | [4]; unphosphorylated
